A mixed list of measured activities; the numbers were collected in NIAID ChemDB.

Common to all: growth or infection tests; agent: Mycobacterium avium complex

Lines come from different laboratories, so protocols vary. Two numbers with a dash give a range or band. A number after MIC or MFC names an inhibition level or a share of isolates. Blank or dashed fields: not listed here.

structure,strain,read-out,method,value
CC[C@H]1OC(=O)[C@H](C)C(=O)[C@H](C)[C@@H](O[C@@H]2O[C@H](C)C[C@H](N(C)C)[C@H]2O)[C@](C)(OC)C[C@@H](C)C(=O)[C@H](C)[C@H]2N(NCCCc3ccnc4ccccc34)C(=O)O[C@]12C,24 strains (HIV+),MIC50,-,9 µg/mL
Cc1c(F)c(N2CCNC(C)C2)cc2c1c(=O)c(C(=O)O)cn2C1CC1,-,MIC90,-,12.5 µg/mL
O[C@@H](c1cc2ccc(C(F)(F)F)cc2c2cc(C(F)(F)F)ccc12)[C@H]1CCCCN1,5 clinical isolates,MIC,-,2–4 µg/mL
CCCCCCCCCCO/N=C1\[C@H](C)CC(C)(O)[C@H](O[C@@H]2O[C@H](C)C[C@H](N(C)C)[C@H]2O)[C@@H](C)[C@H](OC2C[C@@](C)(OC)[C@@H](O)[C@H](C)O2)[C@@H](C)C(=O)O[C@H](CC)[C@@](C)(O)[C@H](O)[C@H]1C,20096 (clarithromycin-resistant),MIC,-,6.25 µg/mL
CCc1nc2ccc(Cl)cn2c1C(=O)NCc1ccc(N2CCC3(CC2)OC[C@H](C)O3)c(F)c1,Clinical isolate KAL,MIC,MTT,≤0.03 µg/mL
CC[C@@]1(O)OC(=O)[C@H](C)[C@@H](O[C@H]2C[C@@](C)(OC)[C@@H](O)[C@H](C)O2)[C@H](C)[C@@H](O[C@@H]2O[C@H](C)C[C@H](N(C)C)[C@H]2O)[C@](C)(OC)C[C@@H](C)C(=O)[C@H](C)[C@@H](O)[C@]1(C)O,MO-1,MIC,-,8 µg/mL
Cc1ccn2c(C(=O)NCc3ccc4c(c3)CCO4)c(C)nc2c1,Clinical isolate 224,MIC,MTT,4 µg/mL
C/C(=N\NC(N)=S)c1cccnc1,109,MIC,-,0.5 µg/mL
CC[C@@]1(O)OC(=O)[C@H](C)[C@@H](O[C@H]2C[C@@](C)(OC)[C@@H](O)[C@H](C)O2)[C@H](C)[C@@H](O[C@@H]2O[C@H](C)C[C@H](N(C)C)[C@H]2O)[C@](C)(OC)C[C@@H](C)C(=O)[C@H](C)[C@@H](O)[C@]1(C)O,-,MIC,-,8 µg/mL
CO[C@H]1/C=C/O[C@@]2(C)Oc3c(C)c(O)c4c(=O)c(c5oc6cc(N7CCCN(C)CC7)cc(=O)c6nc5c4c3=C2O)NC(=O)/C(C)=C\C=C\[C@H](C)[C@H](O)[C@@H](C)[C@@H](O)[C@@H](C)[C@H](OC(C)=O)[C@@H]1C,31F093T,MIC,-,0.6 µg/mL
Cc1cc(-c2cc3c(cc2F)c(=O)c(C(=O)O)cn3C2CC2)cc(C)n1,MO-1,MIC,-,1 µg/mL
Cc1c(F)c(N2CCNC(C)C2)cc2c1c(=O)c(C(=O)O)cn2C1CC1,clinical strain 1,MIC,-,8 µg/mL
CCOCCN1CCN(c2cc(=O)c3nc4c(oc3c2)c2c(=O)c3c(O)c(C)c5c(c34)=C(O)[C@@](C)(O/C=C/[C@H](OC)[C@@H](C)[C@@H](OC(C)=O)[C@H](C)[C@H](O)[C@H](C)[C@@H](O)[C@@H](C)/C=C/C=C(/C)C(=O)N2)O5)CC1,31F093T,MIC,-,0.6 µg/mL
CCCCC(=O)O[C@H]1[C@H](C)OC(O[C@H]2[C@H](C)[C@@H](O[C@@H]3O[C@H](C)C[C@H](N(C)C)[C@H]3O)C(C)(O)C[C@@H](C)/C(=N\OCCCOc3ccccc3)[C@H](C)[C@@H](O)[C@](C)(O)[C@@H](CC)OC(=O)[C@@H]2C)C[C@@]1(C)OC,20039 (clarithromycin-susceptible),MIC,-,1.56 µg/mL
COc1ccc2nccc(/C=C\C3CCCCC3)c2c1,5 clinical isolates,MIC,-,16 µg/mL
CC[C@H]1OC(=O)[C@H](C)[C@@H](O[C@H]2C[C@@](C)(OC)[C@@H](OC(C)=O)[C@H](C)O2)[C@H](C)[C@@H](O[C@@H]2O[C@H](C)C[C@H](N(C)C)[C@H]2O)C(C)(O)C[C@@H](C)/C(=N\OCCN(C)c2ccccc2)[C@H](C)[C@@H](O)[C@]1(C)O,20096 (clarithromycin-resistant),MIC,-,12.5 µg/mL
CO[C@H]1/C=C/O[C@@]2(C)Oc3c(C)c(O)c4c(=O)c(c5oc6cc(N7CCN(C(C)C)CC7)cc(=O)c6nc5c4c3=C2O)NC(=O)/C(C)=C\C=C\[C@H](C)[C@H](O)[C@@H](C)[C@@H](O)[C@@H](C)[C@H](OC(C)=O)[C@@H]1C,31F093T,MIC,-,0.07 µg/mL
CCCCN(CCCC)C[C@H](O)c1cc2c(Cl)cc(Cl)cc2c2cc(C(F)(F)F)ccc12,101 (clarithromycin-resistant),MIC,-,8 µg/mL
CC1COc2c(N3CCN(C)CC3)c(F)cc3c(=O)c(C(=O)O)cn1c23,89 isolates,MIC90,-,>16 µg/mL
COc1cc([N+](=O)[O-])c2nccc(C=O)c2c1F,5 clinical isolates,MIC,-,>16 µg/mL
CO[C@H]1/C=C/O[C@@]2(C)Oc3c(C)c(O)c4c(=O)c(c5oc6cc(N7CCC7)cc(=O)c6nc5c4c3=C2O)NC(=O)/C(C)=C\C=C\[C@H](C)[C@H](O)[C@@H](C)[C@@H](O)[C@@H](C)[C@H](OC(C)=O)[C@@H]1C,31F093T,MIC,-,0.15 µg/mL
O[C@@H](c1cc2ccc(C(F)(F)F)cc2c2cc(C(F)(F)F)ccc12)[C@@H]1CCCCN1,24 clinical isolates,MIC50,-,2 µg/mL
CC[C@H]1OC(=O)[C@H](C)[C@@H](OC2C[C@@](C)(OC)[C@@H](OC(=O)CCCCc3ccccc3)[C@H](C)O2)[C@H](C)[C@@H](O[C@@H]2O[C@H](C)C[C@H](N(C)C)[C@H]2O)C(C)(O)C[C@@H](C)/C(=N\OCCCOc2ccccc2)[C@H](C)[C@@H](O)[C@]1(C)O,20092 (clarithromycin-resistant),MIC,-,6.25 µg/mL
CCCCN(CCCC)C[C@@H](O)c1cc2c(Cl)cc(Cl)cc2c2cc(C(F)(F)F)ccc12,24 clinical isolates,MIC90,-,8 µg/mL
CC1(C)N=C(N)N=C(N)N1OCCCOc1cc(Cl)c(Cl)cc1Cl,DW26,MIC,-,4 µg/mL
CC[C@H]1OC(=O)[C@H](C)[C@@H](O[C@H]2C[C@@](C)(OC)[C@@H](O)[C@H](C)O2)[C@H](C)[C@@H](O[C@@H]2O[C@H](C)C[C@H](N(C)C)[C@H]2O)[C@](C)(OC)C[C@@H](C)C(=O)[C@H](C)[C@@H](O)[C@]1(C)O,N-444,MBC,-,32 µg/mL
Cc1ccc2nc(C)c(C(=O)NCc3ccc(C(F)(F)F)cc3)n2c1,Clinical isolate PRV,MIC,MTT,<0.03 µg/mL

Repeating the final 4 entries:

structure,strain,read-out,method,value
CCCCN(CCCC)C[C@@H](O)c1cc2c(Cl)cc(Cl)cc2c2cc(C(F)(F)F)ccc12,24 clinical isolates,MIC90,-,8 µg/mL
CC1(C)N=C(N)N=C(N)N1OCCCOc1cc(Cl)c(Cl)cc1Cl,DW26,MIC,-,4 µg/mL
CC[C@H]1OC(=O)[C@H](C)[C@@H](O[C@H]2C[C@@](C)(OC)[C@@H](O)[C@H](C)O2)[C@H](C)[C@@H](O[C@@H]2O[C@H](C)C[C@H](N(C)C)[C@H]2O)[C@](C)(OC)C[C@@H](C)C(=O)[C@H](C)[C@@H](O)[C@]1(C)O,N-444,MBC,-,32 µg/mL
Cc1ccc2nc(C)c(C(=O)NCc3ccc(C(F)(F)F)cc3)n2c1,Clinical isolate PRV,MIC,MTT,<0.03 µg/mL